Test results reported in ChEMBL document CHEMBL3227956 (J Med Chem, 1979).

Key:
Mus musculus [1] = experiment: Toxicity in mouse allografted with mouse L1210 cells assessed as survival rate at 500 mg/kg, ip administered on day 1 measured on day 30 relative to control; conditions: in vivo
L1210 [2] = experiment: Antitumor activity against mouse L1210 cells allografted in mouse assessed as increase in survival rate at 500 mg/kg, ip administered on day 1 measured on day 30 relative to control; conditions: route intraperitoneal
L1210 [3] = experiment: Antitumor activity against mouse L1210 cells allografted in mouse assessed as increase in survival rate at 62.5 mg/kg, ip administered on day 1 measured on day 30 relative to control; conditions: route intraperitoneal
Mus musculus [4] = experiment: Toxicity in mouse allografted with mouse L1210 cells assessed as survival rate at >= 125 mg/kg, ip administered on day 1 measured on day 30 relative to control; conditions: in vivo
Mus musculus [5] = experiment: Toxicity in mouse allografted with mouse L1210 cells assessed as survival rate at 62.5 mg/kg, ip administered on day 1 measured on day 30 relative to control; conditions: in vivo
W256 = experiment: Cytotoxicity against rat Walker 256 cells assessed as growth inhibition at 80 to 320 ug/mL in absence of microsomal activation relative to control

| Structure (SMILES) | Survival (Mus musculus [1]) [%] | T/C (L1210 [2]) [%] | Activity (Mus musculus [1]) | T/C (L1210 [3]) [%] | Survival (Mus musculus [4]) [%] | Activity (Mus musculus [5]) | growth inhibition (GI) (W256) [%] |
| --- | --- | --- | --- | --- | --- | --- | --- |
| O=[P@]1(N(CCCl)CCCl)OC[C@@H]2C[N@@]21 | 100 | 106 | – | – | – | – | – |
| [O-][P@@+]1(N(CCCl)CCCl)NC[C@@H](Br)CO1 | – | 146 | Non-toxic | – | – | – | – |
| O=[P@@]1(N(CCCl)CCCl)OC[C@@H]2C[N@@]21 | – | – | – | 120 | 0 | Non-toxic | 100 |
